Measurements reported in PubChem BioAssay AID1259414 (Drosophila RNAi Screening Center, 2018)
The screen tested about 24,000 reagents; this is an unselected part of those with a known target gene and a result. Of all reagents, about 1,210 (5%) were called active. 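Inactive calls also include excluded dsRNAs with several or no targets, genes unexpressed in JW18, and well A1, regardless of score.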

Screen: 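Host factors increasing or decreasing Wolbachia levels in cultured fly cells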 (primary screen)
System: Drosophila JW18 cells infected with Wolbachia
Reagents: long dsRNA against Drosophila genes, 0.25 µg dsRNA per well of a 384-well plate
Timing: 5 days
Conditions: cells persistently infected with Wolbachia before knock-down; no added drug
Measurement: 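Imaged fluorescence in situ signal for Wolbachia 23S rRNA per DAPI-counted host cell, given as a robust z-score within each plate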
Scale: Wolbachia per cell robust z: higher = more Wolbachia per host cell than the plate typical
Active means: 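Active if absolute robust z reaches 1.5 in two or more of three replicates, leaving out multi- or no-target dsRNAs, genes unexpressed in JW18 and A1 wells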

| Wolbachia per cell robust z, rep 1 | Wolbachia per cell robust z, rep 2 | Wolbachia per cell robust z, rep 3 | Outcome | gene knocked down | amplicon |
| --- | --- | --- | --- | --- | --- |
| -12.6 | -1.27 | -0.831 | inactive | CG6028 | DRSC15951 |
| 0.593 | -0.755 | -1.39 | inactive | CG6974 | DRSC16160 |
| -1.34 | 0.68 | 0.154 | inactive | nol | DRSC21425 |
| -0.0711 | 0.654 | 0.922 | inactive | nol | DRSC25423 |
| 0.55 | -0.592 | -0.846 | inactive | SCCRO4 | DRSC10671 |
| -0.32 | -0.0373 | 0.882 | inactive | CG42238 | DRSC03180 |
| -2.31 | 1.62 | -3.38 | active | Spt20 | DRSC22993 |
| 0.637 | 1.2 | 2.96 | inactive | Spt20 | DRSC25791 |
| -1.83 | -1.84 | 0.677 | inactive | Ir10a | DRSC18891 |
| -3.21 | 0.72 | -0.935 | inactive | Ir10a | DRSC19478 |
| -1.24 | 0.317 | -3.21 | inactive | Ir10a | DRSC19479 |
| -0.768 | 0.451 | -1.55 | inactive | side-V | DRSC04189 |
| 0.589 | 0.646 | 0.0363 | inactive | br | DRSC17691 |
| 0.864 | -1.4 | -0.876 | inactive | br | DRSC17788 |
| -1.37 | 0.13 | -0.226 | inactive | br | DRSC17789 |
| 0.194 | 0.863 | -0.333 | inactive | br | DRSC25765 |
| -0.795 | 1.22 | -0.714 | inactive | br | DRSC40672 |
| -3.22 | 0.285 | 0.0517 | inactive | CG15653 | DRSC04244 |
| -0.268 | -1.2 | -0.694 | inactive | qua | DRSC03598 |
| -0.536 | -1.1 | -1.68 | inactive | CG33125 | DRSC00145 |
| -0.949 | -0.761 | 0.475 | inactive | CG33125 | DRSC28619 |
| -6.74 | -0.0502 | -1.34 | inactive | Egm | DRSC07319 |
| -1.75 | -5.55 | -3.22 | active | Egm | DRSC22860 |
| -0.0602 | 0.743 | 1.01 | inactive | Rx | DRSC03837 |
| -0.859 | -2.06 | -1.08 | inactive | Rx | DRSC04652 |
| 0.591 | -0.0199 | 0.643 | inactive | Rx | DRSC25248 |
| 0.081 | 1.39 | 1.36 | inactive | ATPsynCF6L | DRSC08232 |
| 0.48 | 0.128 | 0.821 | inactive | ATPsynCF6L | DRSC27341 |
| 2.53 | 1.57 | 2.33 | inactive | CG7236 | DRSC03037 |
| -0.815 | 1.19 | -0.551 | inactive | CG7236 | DRSC26976 |
| -1.87 | -1.41 | -0.0332 | inactive | CG7236 | DRSC41585 |
| 0.87 | 1.09 | -0.326 | inactive | Sfp26Ac | DRSC40632 |
| 0.871 | 0.463 | -4.11 | inactive | Best2 | DRSC09712 |
| -0.77 | 0.136 | 1.03 | inactive | CG18581 | DRSC10324 |
| 1.04 | -0.121 | -0.481 | inactive | ng1 | DRSC18802 |
| -0.0773 | 0.464 | 0.533 | inactive | lncRNA:CR40465 | DRSC37851 |
| 0.93 | 0.0863 | -1.38 | inactive | CG46385 | DRSC06557 |
| -1.14 | -0.723 | -0.883 | inactive | CG46385 | DRSC25794 |
| -0.367 | -1.78 | -0.00416 | inactive | CG5805 | DRSC15878 |
| 0.344 | -0.63 | 1.11 | inactive | CG5805 | DRSC24253 |
| -3.67 | -0.368 | -0.803 | inactive | CG5805 | DRSC39075 |
| -1.58 | 0.356 | -0.749 | inactive | CG3732 | DRSC04410 |
| -0.201 | 1.45 | 1.79 | inactive | CG3732 | DRSC25057 |
| -1.43 | -12.8 | 0.0331 | inactive | Cyp313b1 | DRSC16629 |
| 1.5 | 0.338 | 1.52 | active | PolA1 | DRSC16640 |
| 0.0462 | -0.388 | -0.761 | inactive | PolA1 | DRSC27879 |
| -2.1 | -0.222 | 1.38 | inactive | CG2616 | DRSC15440 |
| 2.07 | 0.303 | 0.982 | inactive | CG2616 | DRSC24316 |
| -0.00287 | 0.427 | 0.403 | inactive | Ir7a | DRSC17866 |

As entered above.
br [DRSC17691], Wolbachia per cell robust z, rep 1: 0.589
lncRNA:CR40465 [DRSC37851], Outcome: inactive
Value of PolA1 [DRSC16640] in “Wolbachia per cell robust z, rep 1”: 1.5
For “Wolbachia per cell robust z, rep 2”, Ir10a [DRSC19479] is entered as 0.317
For “Outcome”, ATPsynCF6L [DRSC27341] reads inactive
Rx [DRSC25248], Outcome → inactive

More records:
| Wolbachia per cell robust z, rep 1 | Wolbachia per cell robust z, rep 2 | Wolbachia per cell robust z, rep 3 | Outcome | gene knocked down | amplicon |
| --- | --- | --- | --- | --- | --- |
| -0.174 | 0.998 | 1.55 | inactive | CG14154 | DRSC10156 |
| -0.737 | 0.618 | 1.17 | inactive | hpRNA:CR33940 | DRSC39118 |
| -0.339 | -0.183 | -0.478 | inactive | TfIIEbeta | DRSC08701 |
| 0.758 | -0.159 | 0.0659 | inactive | CG2540 | DRSC19856 |
| -0.383 | -0.476 | 0.378 | inactive | CG6154 | DRSC15977 |
| 0.746 | 1.04 | 0.388 | inactive | CG6154 | DRSC28363 |
| 0.00607 | 0.492 | 0.307 | inactive | CG33463 | DRSC22915 |
| 0.644 | -0.437 | 0.89 | inactive | CG33463 | DRSC29923 |
| -1.4 | 0.0927 | -1.75 | inactive | Nmdar2 | DRSC18183 |
| -1.56 | 0.754 | 0.966 | inactive | Nmdar2 | DRSC18511 |
| -3.55 | 0.293 | -0.468 | inactive | Nmdar2 | DRSC18569 |
| -0.11 | 0.587 | -0.653 | inactive | Snoo | DRSC03004 |
| 0.706 | -3.16 | -1.05 | inactive | Snoo | DRSC03035 |
| -0.681 | -0.245 | 0.985 | inactive | BI-1 | DRSC10782 |
| -5.19 | -0.244 | -0.554 | inactive | CG17378 | DRSC02616 |
| 1.2 | 2.1 | 0.221 | inactive | CG3534 | DRSC15494 |
| 0.159 | -0.0105 | 0.464 | inactive | CG3534 | DRSC26023 |
| -0.0857 | 0.139 | 0.747 | inactive | CG3534 | DRSC41613 |
| -2.29 | -0.467 | -0.545 | inactive | CG15020 | DRSC08474 |
| 0.998 | 0.0131 | -0.103 | inactive | CG7601 | DRSC14131 |
| 0.0104 | -6.16 | -0.116 | inactive | lncRNA:CR34047 | DRSC07857 |
| 0.493 | 0.895 | 1.61 | inactive | lncRNA:CR34047 | DRSC21689 |
| -0.878 | -0.94 | 0.325 | inactive | muc | DRSC02832 |
| -0.369 | -0.593 | -0.864 | inactive | muc | DRSC21940 |
| -0.516 | -0.403 | 0.0196 | inactive | muc | DRSC23834 |
| -0.712 | -1.48 | 0.32 | inactive | Ugt36A1 | DRSC00748 |
| 0.306 | -1.32 | 0.661 | inactive | Ugt36A1 | DRSC29161 |
| -0.0409 | -0.852 | -0.0207 | inactive | CG9922 | DRSC16579 |
| 0.671 | -5.56 | -0.342 | inactive | CG9922 | DRSC29719 |
| -0.331 | 1.02 | 0.119 | inactive | Dic3 | DRSC06058 |
| 0.315 | -3.89 | 0.143 | inactive | CG12375 | DRSC02163 |
| -0.263 | 1.07 | 0.905 | inactive | CG12375 | DRSC26794 |
| -0.552 | -0.912 | -1.43 | inactive | Rbsn-5 | DRSC03094 |
| -0.354 | -1.25 | -1.96 | inactive | Rbsn-5 | DRSC27756 |
| -1.23 | 0.3 | 0.789 | inactive | CG42266 | DRSC21577 |
| -1.63 | -1.43 | -0.738 | inactive | CG42266 | DRSC21957 |
| -1.11 | -6.89 | 1.51 | inactive | CG42266 | DRSC29782 |
| -2.58 | 0.0149 | -0.816 | inactive | CG42266 | DRSC39089 |
